From patent US6191155A (priority 1997, dated 2001)

Each compound was assayed on Pyricularia oryzae (assay: Pyricularia test (rice)/Induction of resistance). Conditions: application rate 750 g/ha; inoculated 5 days after treatment; evaluation 4 days after inoculation.
With `CN(C)CCOC(=O)c1snc(Cl)c1Cl` the Efficacy in % was 90%.
For `Cc1ccc(CCOC(=O)c2snc(Cl)c2Cl)cc1`, the Efficacy in % was 100%.
In the case of `O=C(SCc1ccccc1Cl)c1snc(Cl)c1Cl`, the Efficacy in % was 90%.
`O=C(OCCOCc1ccccc1)c1snc(Cl)c1Cl` [Example 5] gave an Efficacy in % of 80%.
Work on `COC(=O)c1ccc(OCCOC(=O)c2snc(Cl)c2Cl)cc1` [Example 6] yielded an Efficacy in % of 90%.
`O=C(OCCOc1ccc(Cl)cc1)c1snc(Cl)c1Cl` [Example 10] showed an Efficacy in % of 70%.
In the case of `O=C(OCCc1ccc(Cl)cc1)c1snc(Cl)c1Cl` [Example 13], the Efficacy in % was 100%.
`CSC(=O)c1snc(Cl)c1Cl` [Example 15] gave an Efficacy in % of 90%.
`CC(C)CSC(=O)c1snc(Cl)c1Cl` [Example 17] showed an Efficacy in % of 100%.
Compound `Cc1ccc(C(C)OC(=O)c2snc(Cl)c2Cl)cc1` (stereo not shown) [Example 19] has an Efficacy in % of 90%.
